In US4772551A (priority 1985, dated 1988):

Tested on: T-2 reactive monoclonal antibody
Assay: CEIA of various trichothecenes with T-2 reactive monoclonal antibody
Type: binding, murine
Details: 10% methanol/PBS; T2HS-ovalbumin solid phase

Structure (SMILES): CC1=C[C@H]2O[C@@H]3C[C@H]4OC(=O)/C=C\C=C\C(C(C)O)OCCC(C)C(O)C(=O)OC[C@@]2(CC1)[C@]4(C)[C@]31CO1 (some centres unmarked)
- Minimal Inhibition (concentration required for first significant inhibition of binding of antibody): > 5000. ug/ml

Structure (SMILES): CC1=C[C@H]2O[C@@H]3C[C@@H](O)[C@](C)([C@@]2(CO)CC1)[C@]31CO1
- Minimal Inhibition (concentration required for first significant inhibition of binding of antibody): 500. ug/ml
